Measurements as given in BindingDB's records for 10.7270/Q2ZW1P2T.

By UniProt entry, the sequences of proteins in these tests, tags left out. Residues count along the entry.
UniProt P25910, 19-249 limits assumed: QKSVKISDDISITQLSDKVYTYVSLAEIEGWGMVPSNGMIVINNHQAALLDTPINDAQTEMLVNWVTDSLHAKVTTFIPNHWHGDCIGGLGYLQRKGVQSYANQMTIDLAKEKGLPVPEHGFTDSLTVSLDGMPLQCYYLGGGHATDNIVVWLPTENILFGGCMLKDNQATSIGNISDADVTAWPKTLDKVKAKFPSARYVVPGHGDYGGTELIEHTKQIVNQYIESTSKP
UniProt P30897, 29-298 limits assumed: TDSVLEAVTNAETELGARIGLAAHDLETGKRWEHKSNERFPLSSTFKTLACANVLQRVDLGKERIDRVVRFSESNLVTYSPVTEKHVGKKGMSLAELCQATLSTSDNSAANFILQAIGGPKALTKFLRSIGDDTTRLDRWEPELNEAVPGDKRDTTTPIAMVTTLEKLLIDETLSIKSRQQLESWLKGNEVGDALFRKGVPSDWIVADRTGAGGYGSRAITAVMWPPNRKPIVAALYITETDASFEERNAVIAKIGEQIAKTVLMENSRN

Tests used:
[1] = target: Metallo-beta-lactamase type 2 (Bacteroides fragilis, UniProt P25910); test: Inhibitory activity against Bacteroides fragilis 88854 Class-I beta-lactamase enzyme
Beta-lactamase = Beta-lactamase (Proteus mirabilis, UniProt P30897); test: Inhibitory activity against Proteus vulgaris HJ33C Class-I beta-lactamase enzyme

| SMILES | IC50 [1] | IC50 (Beta-lactamase) |
| --- | --- | --- |
| C[C@@]1(CSC2=NCCS2)S[C@@H]2[C@H](Br)C(=O)N2[C@H]1C(=O)O | 32.7 nM | 7.55 nM |
| C[C@@]1(CSc2nc[nH]n2)S[C@@H]2[C@H](Br)C(=O)N2[C@H]1C(=O)O | 65.9 nM | 7.91 nM |
| CC1(C)S[C@@H]2[C@H](Br)C(=O)N2[C@H]1C(=O)O | 46.4 nM | 3.57 nM |
